Experimental data: US20170298100A1 (Cascadia Life Sciences LLC, priority 2014, published 2017)
Strings that start with PEPTIDE1 are HELM notation: dots part the residues, brackets hold end groups and non-standard residues.

Experiment: general procedure: Fmoc solid-phase peptide synthesis; TentaGel R or S RAM resin (Rapp Polymer); PyBOP
Details: whole synthesis, mass spectrometry coupled with analytical HPLC (LC/MSD Trap series 1100, Agilent; Phenomenex Gemini-NX column), chloride (counter-ion changed from TFA using acetonitrile with 0.05% HCl)

Which “final LC-MS purity” value does the source give for “PEPTIDE1{[ac].R.Q.Y.S.V.T.D.A.L.E.D.V.S.T.S.P.Q.S.T.E.E.V.V.Q.S.F.L.I.S.Q.[am]}$$$$V2.0” here?
Its value is 80% purity.
